Like-named read-outs stand apart in the source and are kept apart here.
Columns and labels:
[1] = biological target: SARS-CoV-2 spike protein S on live virus, Beta variant (SARS-CoV-2 (Beta variant), UniProt P0DTC2 14-1273); assay: cell-based or functional assay
[2] = biological target: Human SARS-CoV-2 Alpha S (SARS-CoV-2 (Alpha variant)); assay: flow cytometry SVNA: VHH-Fc inhibits S binding to ACE2 on Vero E6 cells
[3] = biological target: T1, SARS-CoV-2 S1-RBD (adsorbed in ELISA) (SARS-CoV-2 Wuhan); assay: ELISA, coated antigen, apparent EC50
T1 construct: domain: S1-RBD

[4] = biological target: T2, SARS-CoV-2 spike trimer S (Wuhan, SmT1) (SARS-CoV-2 Wuhan); assay: competitive ELISA, VHH 0.5 uM final, ACE2-Fc competitor
T2 construct: extracellular domain

[5] = biological target: T3, RBD_beta (aa319-541) (B.1.351) (SARS-CoV-2 (Beta, B.1.351), UniProt P0DTC2 319-541)
[6] = biological target: T3, RBD_beta (aa319-541) (B.1.351); remark: listed apart in the source
[7] = biological target: T3, RBD_beta (aa319-541) (B.1.351); assay: SPR, RBD over captured VHH-Fc
[8] = biological target: T3, RBD_beta (aa319-541) (B.1.351); assay: SPR, RBD over captured VHH-Fc (per Table 11 footnote)

B1: NRCoV2-1d VHH-Fc (Fc fusion)
chain: EVQLVESGGGSVQPGGSLRLSCAASGSTLDYYAIGWFRQAPGKEREWVSSVSSSDGNTLYADSVKGRFTISRDNAKNTVYLQMNSLKAEDTAVYVCAADYSMRPFAVGRWHRDYEYWGQGTQVTVSS
notes: bivalent VHH-Fc
- LVNA IC50 [1]: 2.14 nM

B2: NRCoV2-07 VHH-Fc (Fc fusion)
chain: QVQLVQSGGGLVQPGGSLRLSCAASGVTLDYYAIGWFRQAPGKEREAVSCISSNGRRNHYVASVRGRFTISRDNAKSTVYLQMNSLKPEDTAVYYCAAVQDVHGDNYYCTSPNEYNVWGQGTQVTVSS
notes: bivalent VHH-Fc
- LVNA IC50 [1]: 3.18 nM

B3: NRCoV2-12 VHH-Fc (Fc fusion)
chain: EVQLQQSGGGLVQAGGSLRLSCAASGRTFRNYVMGWFRQAPQAPGKDHEFVAAISWGGTEIYYADSVKGRFTISRDNAKNTVYLQMNSLKPEDTAVYYCAADRGLSYYYTRTTEYNYWGQGTQVTVSS
notes: bivalent VHH-Fc
- LVNA IC50 [1]: 2.62 nM

B4: NRCoV2-18 VHH-Fc (Fc fusion)
chain: EVQLVESGGGLVQAGGSLRLSCVASGITISGYNMAWWRQTRGKQTERVAFINSGGSTTYSDSVKGRFTISRDNGKNTAYLQMNSLNAEDTADYFCSLHTSHDYWGQGTQVTVSS
notes: bivalent VHH-Fc
- LVNA IC50 [1]: 9.48 nM

B5: NRCoV2-20 VHH-Fc (Fc fusion)
chain: EVQLQQSGGGLVQPGGSLRLSCAASGRTFSNYVVGWFRQAPQAPGKDHEFVAVISGSDTETYYADSVKGRFTISRDNAKNTVYLQMNSLKPEDTAVYYCAADRGMSYYYTRATEYYYWGQGTQVTVSS
notes: bivalent VHH-Fc
- LVNA IC50 [1]: 2.88 nM

B6: NRCoV2-MRed04 VHH-Fc (Fc fusion)
chain: EVQLVESGGGLVQPGRSLRLSCAASGNSFSISTMGWFRQAPGKERELVASIWSDTTTSYADSVKGRFTISTDNTRTKVYLQMSSLNPEDTAVYYCAADRGFVVRGQYDYWGQGTQVTVSS
notes: bivalent VHH-Fc
- LVNA IC50 [1]: 5.73 nM

B7: NRCoV2-14 VHH-Fc (Fc fusion)
chain: EVQLVSSGGGLVQAGGSLRLSCEASGTTFSHYAVGWYRQAPGKQREWVASISVFGSTTYGGSVAGRFTISRDNDKNTVDLQMNSLKPEDTAVYYCHAVNADIGGDYWGQGTQVTVSS
notes: bivalent VHH-Fc
- LVNA IC50 [1]: 32.8 nM

B8: NRCoV2-17 VHH-Fc (Fc fusion)
chain: EVQLQQSGGGLVQTGGSLRLSCAAAGSPFSQLAMSWYRQISGKERAWVASISPTGNRSYSKIAKGRFTISRDNAKNTVTLQMTSLKPEDTAAYICQAANVNGGDYWGQGTQVTVSS
notes: bivalent VHH-Fc
- LVNA IC50 [1]: 34.7 nM

B9: NRCoV2-10 VHH-Fc (Fc fusion)
chain: QLQLQESGGGLVQPGGSLTLSCAASGNTFSRSNMHWYRQAPGAQREWVAAISSRGISTYAYSAKGRFTISRDNAKNTVSLQMNSLKPEDTAVYYCYAADDLGDYWGQGTQVTVSS
notes: bivalent VHH-Fc
- LVNA IC50 [1]: 2.25 nM

B10: NRCoV2-15 VHH-Fc (Fc fusion)
chain: EVQLVSSGGGLVEAGGSLRLSCIASGSTSGRNTMGWFRQAPGKQREWVAIVSTSGATNYAGSVKGRFTLSRDNAKNAVYLQMNNLKPEDTAVYYCYAAYGGGGDYWGQGTQVTVSS
notes: bivalent VHH-Fc
- LVNA IC50 [1]: 0.43 nM

B11: NRCoV2-MRed05 VHH-Fc (Fc fusion)
chain: EVQLVESGGGLVQPGGSLRLSCAASGFTLDYYAIGWFRQAPGKEREGVSCISSSDGSTLYADSVKGRFTISRDNAKNTVYLQMNSLKPEDTAVYYCATGPQAYYSGSYYFQCPQAGMDYWGKGTQVTVSS
notes: bivalent VHH-Fc
- LVNA IC50 [1]: 0.11 nM

B12: NRCoV2-11 VHH-Fc (Fc fusion)
chain: EVQLVSSGGGLVQPGGSLRLSCAASGSSLDSYSVSWFRQAPGKEREWISFISRYYSSTYYTDSVKGRFTTSRDGDQKTVHLQMNSLKPEDTAVYYCAARSRDFSSPFSATDTYTSWGQGTQVTVSS
notes: bivalent VHH-Fc
- LVNA IC50 [1]: 18.5 nM

B13: NRCoV2-SR01 VHH-Fc (Fc fusion)
chain: EVQLVQSGGGSVQAGGSLRLSCVASGFTFDNYAIGWFRQAPGKEREGVSCISGNGGVTIYADSVKGRFTISRDNAKNLVYLQMNSLKPEDTAVYYCAATGIRSTWSVYGCSRLAGPYDYWGQGTQVTVSS
notes: bivalent VHH-Fc
- LVNA IC50 [1]: 70.3 nM

B14: NRCoV2-SR02 VHH-Fc (Fc fusion)
chain: EVQLVDSGGGLVQAGGSLRLSCTASEFTLNYYSIGWFRQSPGKEREGVSCIRYSGGGIDYADSVKGRFTISRDNAKNTVYLTMNSLKPEDTAVYYCAADRLYSRACPTAGGRNYWGQGTQVTVSS
notes: bivalent VHH-Fc
- LVNA IC50 [1]: ~300 nM

B15: NRCoV2-SR13 VHH-Fc (Fc fusion)
chain: EVQLVESGGGLVTTGGSLRLSCATSGSRFGSKHMAWYRQAPGKQRDLVAAISSGGSTHYGSSVKGRFTISRDNAKSTVYLQMNSLNPEDTAVFYCNMGGWDYRSNTYIPGSRSDYWGQGTQVTVSS
notes: bivalent VHH-Fc
- IC50 [2]: 22.4 nM

B16: NRCoV2-SR02 VHH-Fc (Fc fusion)
chain: B14 chain
notes: bivalent VHH-Fc
- IC50 [2]: 7.3 nM

B17: NRCoV2-02 VHH-Fc (Fc fusion)
chain: EVQLVESGGGLVQAGGSLRLSCAASGFTFSNYAMNWVRQAPGKGLEWVSGISGRGDDTRYADSVKGRFTISRDNAKNTLFLQMRSLRPEDTGVYRCTKGPDLYYFGSGYSDRGQGTQVTVSS
notes: bivalent
- EC50 [3]: 0.21 nM

B18: NRCoV2-1d VHH (VHH)
VHH: B1 chain
- % inhibition of ACE2-Fc binding to S [4]: ~100%

B19: NRCoV2-02 VHH (VHH)
VHH: B17 chain
- % inhibition of ACE2-Fc binding to S [4]: ~100%

B20: NRCoV2-05 VHH (VHH)
VHH: EVKLVQSGGGLVQPGGSLRLSCAASGFIFSNYAMNWVRQAPGKGLEWVSGINSGGGDTRYADSVKGRFTVSRDNAKNTLYLQMNSLKPEDTGVYYCSKGPVSSYYGSGYDYRGQGTQVTVSS
- % inhibition of ACE2-Fc binding to S [4]: ~100%

B21: NRCoV2-07 VHH (VHH)
VHH: B2 chain
- % inhibition of ACE2-Fc binding to S [4]: ~100%

B22: NRCoV2-SR02 VHH (VHH)
VHH: B14 chain
- % inhibition of ACE2-Fc binding to S [4]: ~100%

B23: NRCoV2-12 VHH-Fc (Fc fusion)
chain: B3 chain
- Kd [5]: 0.0401 nM
- koff [5]: 3.89e-05 s⁻¹
- kon [5]: 970000 M⁻¹ s⁻¹
- Kd [6]: 0.04 nM

B24: NRCoV2-MRed05 VHH-Fc (Fc fusion)
chain: B11 chain
- Kd [7]: 0.888 nM
- koff [7]: 0.000544 s⁻¹
- kon [7]: 612000 M⁻¹ s⁻¹
- Kd [8]: 0.89 nM

— patent US20240270826A1 (NATIONAL RESEARCH COUNCIL OF CANADA, published 2024)
